Data as given in PubChem BioAssay AID1259414 (Drosophila RNAi Screening Center, 2018)
In all, the deposit lists about 24,000 reagents; this is a random part of those that have a named target and a result. Over the whole deposit, about 1,210 (5%) were called active. 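Inactive calls also include excluded dsRNAs with several or no targets, genes unexpressed in JW18, and well A1, regardless of score.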 The numbers tell different reagents against one gene apart. Names joined by + are all predicted targets of the reagent.

Test: 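Fly genes that alter Wolbachia amount inside host cells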 (primary screen)
System: Drosophila JW18 cells infected with Wolbachia
Reagents: long dsRNA against Drosophila genes, 0.25 µg dsRNA per well of a 384-well plate
Timing: 5 days
Treatment: cells persistently infected with Wolbachia before knock-down; no added drug
Detection: 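Automated imaging of bacterial rRNA staining divided by host cell count, reported as plate-normalised robust z-score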
Scale: Wolbachia per cell robust z: higher = more Wolbachia per host cell than the plate typical
Hit rule: 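Hit when robust z is 1.5 or more, or -1.5 or less, in at least two of three replicates; excludes dsRNAs with several or no targets, genes not expressed in JW18 and well A1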

| Gene | dsRNA no. | Wolbachia per cell robust z, rep 1 | Wolbachia per cell robust z, rep 2 | Wolbachia per cell robust z, rep 3 | call |
| --- | --- | --- | --- | --- | --- |
| CG16813 | 1 | -0.423 | -0.158 | 0.293 | inactive |
| CG12231 | 1 | 0.282 | 0.726 | 1.15 | inactive |
| CG15201 | 1 | -5.05 | -0.902 | -0.225 | inactive |
| rad50 | 1 | -0.145 | 0.142 | 0.326 | inactive |
| CG14818 | 1 | -0.0938 | 0.74 | 0.15 | inactive |
| CG14818 | 2 | -0.728 | -1.03 | -0.522 | inactive |
| CG10550 | 1 | 1.24 | 0.116 | -0.694 | inactive |
| Chmp1 (Charged multivesicular body protein 1) | 1 | -0.0163 | 0.502 | 0.79 | inactive |
| Chmp1 (Charged multivesicular body protein 1) | 2 | -1.75 | 0.0048 | -1.37 | inactive |
| Chmp1 (Charged multivesicular body protein 1) | 3 | 1.01 | 1.04 | 1.22 | inactive |
| CG17560 | 1 | -0.561 | 0.128 | 0.359 | inactive |
| TwdlU (TweedleU) | 1 | -0.225 | -1.42 | -0.872 | inactive |
| TwdlU (TweedleU) | 2 | 0.139 | -2.87 | 0.105 | inactive |
| CG6415 | 1 | 1.07 | 0.775 | -1.66 | inactive |
| CG6415 | 2 | -0.265 | 0.58 | 0.324 | inactive |
| CG13455 | 1 | 0.235 | -2.12 | 0.331 | inactive |
| Rx (Retinal Homeobox) | 1 | -0.0602 | 0.743 | 1.01 | inactive |
| Rx (Retinal Homeobox) | 2 | -0.859 | -2.06 | -1.08 | inactive |
| Rx (Retinal Homeobox) | 3 | 0.591 | -0.0199 | 0.643 | inactive |
| stwl (stonewall) | 1 | -0.671 | 0.57 | 2.06 | inactive |
| stwl (stonewall) | 2 | 1.15 | -0.507 | 0.485 | inactive |
| CG31882 | 1 | 0.728 | 0.0739 | 1.1 | inactive |
| Lint-1 (l(3)mbt interacting protein 1) | 1 | -4.19 | -1.21 | -0.551 | inactive |
| Lint-1 (l(3)mbt interacting protein 1) | 2 | -0.875 | -1.64 | -0.913 | inactive |
| CG33552 | 1 | -1.19 | -0.952 | -0.952 | inactive |

Continued; the last 6 above are carried over.
| Gene | dsRNA no. | Wolbachia per cell robust z, rep 1 | Wolbachia per cell robust z, rep 2 | Wolbachia per cell robust z, rep 3 | call |
| --- | --- | --- | --- | --- | --- |
| stwl (stonewall) | 1 | -0.671 | 0.57 | 2.06 | inactive |
| stwl (stonewall) | 2 | 1.15 | -0.507 | 0.485 | inactive |
| CG31882 | 1 | 0.728 | 0.0739 | 1.1 | inactive |
| Lint-1 (l(3)mbt interacting protein 1) | 1 | -4.19 | -1.21 | -0.551 | inactive |
| Lint-1 (l(3)mbt interacting protein 1) | 2 | -0.875 | -1.64 | -0.913 | inactive |
| CG33552 | 1 | -1.19 | -0.952 | -0.952 | inactive |
| CG34177 + CG34178 | 1 | -0.139 | 0.437 | -0.355 | inactive |
| Mul1 (Mitochondrial E3 ubiquitin protein ligase 1) | 1 | 0.444 | -0.151 | 0.171 | inactive |
| Mul1 (Mitochondrial E3 ubiquitin protein ligase 1) | 2 | -10.2 | 0.64 | 0.227 | inactive |
| Ude (Uracil-DNA degrading factor) | 1 | 0.353 | -3.31 | -1.54 | active |
| CG31347 | 1 | -0.0758 | 0.175 | 0.548 | inactive |
| gbb (glass bottom boat) | 1 | 0.441 | 0.989 | 0.444 | inactive |
| gbb (glass bottom boat) | 2 | 1.27 | 0.991 | 0.741 | inactive |
| CG9839 | 1 | -2.35 | -7.16 | -0.119 | active |
| Pvf3 (PDGF- and VEGF-related factor 3) | 1 | -0.106 | -2.28 | -1.01 | inactive |
| Pvf3 (PDGF- and VEGF-related factor 3) | 2 | -0.317 | -1.11 | -0.913 | inactive |
| Pvf3 (PDGF- and VEGF-related factor 3) | 3 | 0.269 | 0.889 | 0.582 | inactive |
| Pvf3 (PDGF- and VEGF-related factor 3) | 4 | -0.901 | -0.173 | -0.986 | inactive |
| Pvf3 (PDGF- and VEGF-related factor 3) | 5 | -0.975 | 1.7 | -0.024 | inactive |
| Pvf3 (PDGF- and VEGF-related factor 3) | 6 | 1.16 | 0.557 | 0.0368 | inactive |
| CG14785 | 1 | 0.823 | 0.671 | -3.39 | inactive |
| peo (pendolino) | 1 | -1.31 | -0.239 | 0.233 | inactive |
| Chd1 (Chromodomain-helicase-DNA-binding protein 1) | 1 | -0.682 | -0.0311 | -0.822 | inactive |
| lncRNA:CR43144 (long non-coding RNA:CR43144) | 1 | -1.68 | -2.79 | -1.01 | active |
| Acp54A1 (Accessory gland protein 54A1) | 1 | 0.331 | 0.486 | 0.727 | inactive |
| Cox10 (Cytochrome c oxidase assembly factor 10) | 1 | 0.193 | -0.57 | -0.213 | inactive |
| CG11771 | 1 | -8.49 | 0.203 | 2.64 | inactive |
| CG11771 | 2 | -0.709 | -0.526 | -0.166 | inactive |
| Prp19 (Pre-RNA processing factor 19) | 1 | 1.12 | 0.342 | -1.27 | inactive |
| Prp19 (Pre-RNA processing factor 19) | 2 | 1.31 | 1.55 | 0.54 | inactive |
| EMC3 (ER membrane protein complex subunit 3) | 1 | 0.952 | -4.93 | 0.17 | inactive |
| EMC3 (ER membrane protein complex subunit 3) | 2 | 0.814 | -0.0928 | -0.158 | inactive |
| Br140 (Bromodomain-containing protein, 140kD) | 1 | 1.39 | 1.79 | 1.21 | inactive |
| CG42812 | 1 | 0.566 | -1.61 | -0.0521 | inactive |
| CG13297 | 1 | 0.617 | 0.905 | -0.695 | inactive |
| CG30184 | 1 | 0.901 | 0.857 | 0.754 | inactive |
| CG30184 | 2 | -0.309 | -0.635 | 0.538 | inactive |
| mRpL53 + CG33155 | 1 | 0.0749 | 1.33 | 1.2 | inactive |
| mRpL53 + CG33155 | 2 | -1.06 | -6.19 | -0.633 | inactive |
| CG1572 | 1 | -3.38 | 0.0463 | -0.916 | inactive |
| CG2533 | 1 | -2.64 | -2.24 | -3.22 | inactive |
| CG2533 | 2 | 0.307 | 0.427 | -1.25 | inactive |
| Whamy (WHAMM and JMY related) | 1 | -0.493 | -1.47 | -0.34 | inactive |
| Whamy (WHAMM and JMY related) | 2 | -0.583 | 0.657 | 0.923 | inactive |
| CG30414 | 1 | 0.0503 | 0.788 | -0.153 | inactive |
| CG30414 | 2 | 1.03 | -1.46 | -0.0481 | inactive |
| CG10019 | 1 | 0.0454 | -0.382 | 1.1 | inactive |
| CG10019 | 2 | -4.33 | 0.0329 | -0.144 | inactive |
| hoe1 (hoepel1) | 1 | -0.725 | 0.799 | 0.0268 | inactive |
| hoe1 (hoepel1) | 2 | -0.00458 | -0.445 | -1.36 | inactive |
| hoe1 (hoepel1) | 3 | -0.246 | -1.31 | -0.29 | inactive |
